The source of these data is patent US10765662B2, “Mono- or di-substituted indole derivatives as dengue viral replication inhibitors” (Janssen Pharmaceuticals, Inc., priority 2015, dated 2020).

What all share (assay type): cell-based, Dengue virus
Data set [1] relates to DENV-2 strain 16681. The data set can be described thus: Tetravalent RT-qPCR assay Protocol A, serotype 2. The note with it: RT-qPCR serotype 2 16681. On the procedure:
(§1) The antiviral activity of the compounds of the invention was tested against DENV-1 strain TC974#666 (NCPV), DENV-2 strain 16681, DENV-3 strain H87 (NCPV) and DENV-4 strains H241 (NCPV) and EDEN (SG/06K2270DK1/2005; GenBank accession number QG398256) in a RT-qPCR assay. Therefore, Vero cells were infected with either DENV-1, or -2, or -3, or -4 in the presence or absence of test compounds. At day 3 post-infection, the cells were lysed and cell lysates were used to prepare cDNA of both a viral target (the 3′UTR of DENV; Table 2) and a cellular reference gene (β-actin, Table 2). Subsequently, a duplex real time PCR was performed on a Lightcycler480 instrument. The generated Cp value is inversely proportional to the amount of RNA expression of these targets. Inhibition of DENV replication by a test compound results in a shift of Cp's for the 3′UTR gene. On the other hand, if a test compound is toxic to the cells, a similar effect on β-actin expression will be observed. The comparative ΔΔCp method is used to calculate EC50, which is based on the relative gene expression of the target gene (3′UTR) normalized with the cellular housekeeping gene (β-actin). In addition, CC50 values are determined based on the Cp values acquired for the housekeeping gene β-actin.
(§2) The culture medium consisted of minimal essential medium supplemented with 2% of heat-inactivated fetal calf serum, 0.04% gentamycin (50 mg/mL) and 2 mM of L-glutamine. Vero cells, obtained from ECACC, were suspended in culture medium and 75 μL/well was added in 96-well plates (10000 cells/well), which already contain the antiviral compounds. […] In addition, each plate contains wells which are assigned as virus controls (containing cells and virus in the absence of compound) and cell controls (containing cells in the absence of virus and compound). Once the cells were added in the plates, the plates were incubated in a fully humidified incubator (37° C., 5% CO2) until the next day. Dengue viruses serotype-1, 2, 3 and 4 were diluted in order to obtain a Cp of ˜22-24 in the assay. Therefore, 25 μL of virus suspension, was added to all the wells containing test compound and to the wells assigned as virus control. In parallel, 25 μL of culture medium was added to the cell controls. Next, the plates were incubated for 3 days in a fully humidified incubator (37° C., 5% CO2). After 3 days, the supernatant was removed from the wells and the cells were washed twice with ice-cold PBS (˜100 μL). The cell pellets within the 96-well plates were stored at −80° C. for at least 1 day. Next, RNA was extracted using the Cells-to-CT™ lysis kit, according to the manufacturer's guideline (Life Technologies). The cell lysates can be stored at −80° C. or immediately used in the reverse transcription step.
(§3) In preparation of the reverse transcription step, mix A (table 3A) was prepared and 7.57 μL/well was dispensed in a 96-well plate. After addition of 5 μL of the cell lysates, a five minute denaturation step at 75° C. was performed (table 3B). Afterwards, 7.43 μL of mix B was added (table 3C) and the reverse transcription step was initiated (table 3D) to generate cDNA.
(§4) Finally, a RT-qPCR mix was prepared, mix C (table 4A), and 22.02 μL/well was dispensed in 96-well LightCycler qPCR plates to which 3 μL of cDNA was added and the qPCR was performed according to the conditions in table 4B on a LightCycler 480.
(§5) Using the LightCycler software and an in-house LIMS system, dose response curves for each compound were calculated and the half maximal effective concentration (EC50) and the half maximal cytotoxic concentration (CC50) were determined (Tables 5-8).
In general terms: In qPCR the cycle at which signal appears reflects the starting amount.

The test system of data set [2] is DENV-2 16681 strain labeled with enhanced green fluorescent protein. Kind of data set: DENV-2 antiviral assay (eGFP fluorescence read-out in Vero cells). The settings on record: SI=CC50/EC50, DENV-2 antiviral assay. The method, then:
The antiviral activity of all the compounds of the invention was tested against the DENV-2 16681 strain which was labeled with enhanced green fluorescent protein (eGPF). The culture medium consists of minimal essential medium supplemented with 2% of heat-inactivated fetal calf serum, 0.04% gentamycin (50 mg/mL) and 2 mM of L-glutamine. Vero cells, obtained from ECACC, were suspended in culture medium and 25 μL was added to 384-well plates (2500 cells/well), which already contain the antiviral compounds. Typically, these plates contain a 5-fold serial dilution of 9 dilution steps of the test compound at 200 times the final concentration in 100% DMSO (200 nL). […] Finally, each plate contains wells which are assigned as virus controls (containing cells and virus in the absence of compound), cell controls (containing cells in the absence of virus and compound) and medium controls (containing medium in the absence of cells, virus and compounds). To the wells assigned as medium control, 25 μL of culture medium was added instead of Vero cells. Once the cells were added to the plates, the plates were incubated for 30 minutes at room temperature to allow the cells to distribute evenly within the wells. Next, the plates were incubated in a fully humidified incubator (37° C., 5% CO2) until the next day. Then, DENV-2 strain 16681, labeled with eGFP, was added at a multiplicity of infection (MOI) of 0.5. Therefore, 15 μL of virus suspension was added to all the wells containing test compound and to the wells assigned as virus control. In parallel, 15 μL of culture medium was added to the medium and cell controls. Next, the plates were incubated for 3 days in a fully humidified incubator (37° C., 5% CO2). At the day of the read out, the eGFP fluorescence was measured using an automated fluorescence microscope at 488 nm (blue laser). Using an in-house LIMS system, inhibition dose response curves for each compound were calculated and the half maximal effective concentration (EC50) was determined. Therefore, the percent inhibition (I) for every test concentration is calculated using the following formula: I=100*([…])/(SVC−SCC); ST, SCC and SVC are the amount of eGFP signal in the test compound, cell control and virus control wells, respectively. The EC50 represents the concentration of a compound at which the virus replication is inhibited with 50%, as measured by a 50% reduction of the eGFP fluorescent intensity compared to the virus control. The EC50 is calculated using linear interpolation (Table 1).

The test system of data set [3] is DENV-4 strain EDEN (SG/06K2270DK1/2005). The data set can be described thus: Tetravalent RT-qPCR assay Protocol A, serotype 4 EDEN. The note with it: RT-qPCR serotype 4 EDEN. The method, then: as §1, §2, §3, §4, §5
Data set [4] deals with DENV-3 strain H87. Kind of data set: Tetravalent RT-qPCR assay Protocol A, serotype 3. The settings on record: RT-qPCR serotype 3 H87. On the procedure:
as §1, §2, §3, §4, §5

Data set [5] relates to DENV-4 strain H241. The data set can be described thus: Tetravalent RT-qPCR assay Protocol A, serotype 4 H241. The settings on record: RT-qPCR serotype 4 H241. On the procedure: as §1, §2, §3, §4, §5
Data set [6] deals with DENV-1 strain TC974#666. The data set can be described thus: Tetravalent RT-qPCR assay Protocol A, serotype 1. The note with it: RT-qPCR serotype 1 TC974#666. The method, then: as §1, §2, §3, §4, §5

Regarding `COc1cc(NC(C(=O)c2c[nH]c3cc(F)c(F)cc23)c2ccc(Cl)cc2OCCO)cc(S(C)(=O)=O)c1` (single isomer, unassigned) [Compound 7A, 2-(4-chloro-2-(2-hydroxyethoxy)phenyl)-1-(5,6-difluoro-1H-indol-3-yl)-2-((3-methoxy-5-(methylsulfonyl)phenyl)amino)ethanone], the SI in data set [1] is on record as more than 14800; in data set [2], 12573; in data set [3], 4953; in data set [4], 299; in data set [5], 37; in data set [6] it was 5380.

Turning to `COc1cc(NC(C(=O)c2c[nH]c3cc(OC)ccc23)c2ccc(Cl)cc2OCCO)cc(S(C)(=O)=O)c1` (single isomer, unassigned) [Compound 3A, 2-(4-chloro-2-(2-hydroxyethoxy)phenyl)-1-(6-methoxy-1H-indol-3-yl)-2-((3-methoxy-5-(methylsulfonyl)phenyl)amino)ethanone], the SI in data set [1] is 16800; in data set [2], 16400; in data set [3], 2088; in data set [4], 110; in data set [5] it was 21; in data set [6] it was 1380.

As to `COc1cc(NC(C(=O)c2c[nH]c3cc(Cl)ccc23)c2ccc(Cl)cc2OCCO)cc(S(C)(=O)=O)c1` (single isomer, unassigned) [Compound 2A, 1-(6-chloro-1H-indol-3-yl)-2-(4-chloro-2-(2-hydroxyethoxy)phenyl)-2-((3-methoxy-5-(methylsulfonyl)phenyl)amino)ethanone], the SI in data set [1] is reported as more than 29700; in data set [2], more than 37500; in data set [3] it was more than 2406; in data set [4], more than 186; in data set [5] it was 39; in data set [6], more than 1980.

For the compound `COc1cc(NC(C(=O)c2c[nH]c3c(C)c(Cl)ccc23)c2ccc(Cl)cc2OCCO)cc(S(C)(=O)=O)c1` (single isomer, unassigned) [Compound 5B, 2-(4-chloro-2-(2-hydroxyethoxy)phenyl)-1-(6-chloro-7-methyl-1H-indol-3-yl)-2-((3-methoxy-5-(methylsulfonyl)phenyl)amino)ethanone], the SI was more than 52300 in data set [1]; more than 43900 in data set [2]; more than 2989 in data set [3]; more than 218 in data set [4]; 33 in data set [5]; more than 967 in data set [6].

With `COc1cc(NC(C(=O)c2c[nH]c3cc(OC)c(C)cc23)c2ccc(Cl)cc2OCCO)cc(S(C)(=O)=O)c1` (single isomer, unassigned) [Compound 6A, 2-(4-chloro-2-(2-hydroxyethoxy)phenyl)-2-((3-methoxy-5-(methylsulfonyl)phenyl)amino)-1-(6-methoxy-5-methyl-1H-indol-3-yl)ethanone], the SI in data set [1] was 65400; in data set [2], more than 38500; in data set [3], more than 2825; in data set [4], 198; in data set [5], 58; in data set [6], 2830.
